Source: article PMC5963220

Test system: IHF alpha subunit (IHFα) + IHF beta subunit (IHFβ)
Test: EMSA
Settings: calf thymus DNA 0.5 ug, 50 mM Tris-HCl pH 8.0, 100 mM KCl, 1 mM DTT, 2.5 mM EDTA, 5% glycerol, 0.5 ug calf thymus DNA, 5 ug/ml BSA, 20 ng probe in 20 ul, room temperature 30 min, 6% native PAGE, recombinant protein, label: biotin, probe letters rebuilt from the primers and the genome

Sequence | binding result (completely shifted at 590 nM IHF) | binding result (two shifted bands with increasing IHF)
GAGTTTGACCTTCGATAGAGATATAACATGGAGTTGGCATTGCTCATTCCTTTCTAACTGGTTGTTTATCAGGCAACGGGTTAAGACAACCTTTGCCATTCGATAAAACGTTCGTGATGTAAGTGCGCTCAGCGCGAATTCAGTGAGTAAGGGAGCAAAGTCGATGCCACTTTGGCATTCATTTAAAATCAATTAGTTATATTTAAAACCTTGCCATTAGAGCAACAAACTGCCTTTGAACAAGCAAGATCTTGCTTGTCGGGCAAGGTTCACGTCGCTGGTTCAGGCCACTTGTTAATCTGTAGCACGTTGGTACACTTCTCTCTCATTTTTCGTCAAGGAAGGCTATTCTCA (double strand) [probe-tssD2a (wild-type tssD2_a promoter)] | binds | –
TTAGGAGCTACACTTCCTTCTTTAGACATATAACGTCTCCAAATACCTATGCCAGTCGTTGTCAATGAAATAGTTGTGTAAATATCTGATTGATAATACACATTAGAAATATCTTAATTATCTTATTTGATTTTTAGTAAATATAACTTCTTGAAATTGATTAATTCACCCGACTTCTCGTCAGACAAATATAACCATTGAATAATACAAGTTAAACTTACATATAAACTTTTATTTATAAAACTATGAATAAAGAGACAAGCCAATCTCCCTATTCCTGATATTCGAAAGCGAGCATATTCTATTCATTTAATAATGTTTTGTTGCACAAAAATCACAAGAATATGATCTTCACCCCAAAAACGATTACTTTTATCACACTTATTATCTATCGCTAATATTGAAATAAACTAAATATCCCAGAACAGATCATGGT (double strand) [VflT6SS2 major cluster promoter probe] | – | binds

For at least one entry, the source does not settle the construct or the ends of the probe.
